For 1 compound, Kd results are on record in US7662860B2 (priority 2003, dated 2010).

The target in this experiment is SARS-CoV virus 3CL protease protein (Severe acute respiratory syndrome coronavirus, UniProt P0C6X7). Particulars: SPR, 3CL protease fixed on CM5 chip, cinanserin as mobile phase 62.5-2000 nM. Background: SPR reads the build-up and loss of mass on a sensor chip optically.

The Kd is the equilibrium constant for the complex coming apart. `CN(C)CCCSc1ccccc1NC(=O)C=Cc1ccccc1` [cinanserin, 2′-(3-dimethylaminopropylthio)cinnamanilide]: the dissociation constant (Kd) was determined as 2.57 µM.
